Measurements reported in PubChem BioAssay AID504761 (Drosophila RNAi Screening Center, 2011)
Assay: 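Fly genes whose silencing reduces dengue virus type 2 infection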 (primary screen). Cell system: D.Mel-2 cells from Drosophila. Reagent: long dsRNA against Drosophila genes. Challenge: infection with dengue virus type 2; dose and infection time not stated. Detection: 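Cells stained for dengue envelope protein and imaged; percent of infected cells per well on duplicate plates, ranked by infection, with stained nuclei counted for cell number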. Reading the numbers: infection score: higher = more virus-infected cells; cell count: higher = more cells in the well. Call rule: 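Very low infection ranking in both replicate wells (chance probability at most 0.065), then a retest showing infection dropped 1.5-fold or more at p below 0.05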. Calls: active = confirmed: knock-down lowers infection; inactive = not picked or not confirmed.
In all, the deposit lists about 22,000 reagents; shown is an unselected part of those that have a named target and a result. In the full data, 116 (0.52%) got an active call. 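Calls depend on retest data that are not deposited; infection was ranked per plate without normalising between plates; the unit of the infection score is not given.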 The raw values are shown without normalisation. The record does not give: the amount of reagent, the time to read-out.

| target | dsRNA | infection score, replicate 1 | infection score, replicate 2 | cell count, replicate 1 | cell count, replicate 2 | activity call |
| --- | --- | --- | --- | --- | --- | --- |
| CG9284 (retired record) | DRSC03899 | 1.97 | 2.26 | 5929 | 5804 | inactive |
| CG9284 (retired record) | DRSC04536 | 6.87 | 35.7 | 6248 | 4650 | inactive |
| Mst57Db | DRSC21551 | 3.1 | 6.63 | 6350 | 6422 | inactive |
| CG5676 | DRSC02875 | 1.66 | 1.44 | 6728 | 6383 | inactive |
| Mesh1 | DRSC14433 | 5.33 | – | 6561 | 357 | inactive |
| Oatp33Eb | DRSC02955 | 8.27 | 3.92 | 6098 | 6022 | inactive |
| Tmem131 | DRSC07154 | 12.6 | 8.25 | 3824 | 1685 | inactive |
| Acsx4 | DRSC14311 | 30.3 | 8.86 | 5240 | 3114 | inactive |
| Acsx4 | DRSC27646 | 5.55 | 5.65 | 6288 | 6281 | inactive |
| be | DRSC19607 | 6.57 | 17.9 | 6548 | 4379 | inactive |
| be | DRSC19944 | 10.9 | 12.4 | 5877 | 6309 | inactive |
| be | DRSC19945 | 7.54 | 8.78 | 4272 | 5718 | inactive |
| Nrg | DRSC17573 | 8.1 | 2.16 | 6112 | 6375 | inactive |
| Nrg | DRSC18688 | 3.57 | 0.9 | 6676 | 6345 | inactive |
| Nrg | DRSC27797 | 7.55 | 11.1 | 6289 | 6697 | inactive |
| Ufc1 | DRSC07156 | 10.1 | 10.8 | 1505 | 1943 | inactive |
| CG31345 | DRSC14193 | 1.13 | 9.76 | 6483 | 6425 | inactive |
| CG31345 | DRSC14847 | 8.05 | 19.2 | 6238 | 4315 | inactive |
| CG12814 | DRSC14552 | 24.7 | 20.2 | 5982 | 5849 | inactive |
| CG12814 | DRSC14553 | 2.52 | 10.5 | 6505 | 5767 | inactive |
| CG7966 | DRSC16356 | 23.1 | 30.4 | 5082 | 5263 | inactive |
| CG13841 | DRSC14691 | 1.52 | 6.51 | 5871 | 6453 | inactive |
| CG13841 | DRSC26257 | 17.3 | 13.1 | 3715 | 4262 | inactive |
| Obp56a | DRSC06085 | 6.03 | 3.97 | 5287 | 5725 | inactive |
| Obp56a | DRSC30070 | 2 | 6.12 | 6860 | 5771 | inactive |
| sds22 | DRSC17052 | 12.3 | – | 1588 | 445 | inactive |
| PolE1 | DRSC16112 | 15 | 1.03 | 5894 | 290 | inactive |
| PolE1 | DRSC27613 | 7.64 | 13.6 | 6273 | 6651 | inactive |
| rgn | DRSC11609 | 9.88 | 7.77 | 5465 | 6941 | inactive |
| CG13408 | DRSC13534 | 2.66 | 2 | 6004 | 6348 | inactive |
| CG13408 | DRSC14584 | 2.74 | 0.44 | 6686 | 6434 | inactive |
| CG8908 | DRSC07297 | 2.41 | 4.59 | 6091 | 5756 | inactive |
| mora | DRSC16594 | 4.01 | 3.56 | 6361 | 6689 | inactive |
| CG12003 | DRSC08214 | 6.43 | 4 | 5991 | 6032 | inactive |
| ABCB7 | DRSC08603 | 3.44 | 1.39 | 5813 | 6194 | inactive |
| M6 | DRSC11869 | 4.79 | 14.6 | 5944 | 5409 | inactive |
| Gr66a | DRSC10783 | 0.13 | 0.38 | 6098 | 6105 | active |
| CG13023 | DRSC09903 | 1.99 | 3.67 | 6317 | 6396 | inactive |
| Mur11Da | DRSC18960 | 1.88 | 0.57 | 6652 | 6545 | inactive |

Only “infection score, replicate 2” (2 entries from above):
Nrg [DRSC17573]: 2.16
Nrg [DRSC18688]: 0.9
